Test results as given in US20240109955A1 (published 2024).

How the values were obtained:
Experiment in all cases: cell-based or functional assay
[1] = target: SARS-CoV-2 Omicron BA.4/5 spike protein (SARS-CoV-2)
[2] = target: SARS-CoV-2 Omicron BQ.1 spike protein (SARS-CoV-2)
[3] = target: SARS-CoV-2 Omicron BQ.1.1 spike protein (SARS-CoV-2)
[4] = target: SARS-CoV-2 Omicron BA.2.75.2 spike protein (SARS-CoV-2)
[5] = target: SARS-CoV-2 Omicron XBB spike protein (SARS-CoV-2)
[6] = target: SARS-CoV-2 spike (S) protein, Omicron sublineage BA.2 (SARS-CoV-2, UniProt P0DTC2 14-1273)
[7] = target: SARS-CoV-2 spike (S) protein, Omicron sublineage BA.2.12.1 (SARS-CoV-2, UniProt P0DTC2 14-1273)

| Binder | IC50, pseudovirus neutralization [1] [mg/L] | IC80, pseudovirus neutralization [1] [mg/L] | IC50, pseudovirus neutralization [2] [mg/L] | IC80, pseudovirus neutralization [2] [mg/L] | IC50, pseudovirus neutralization [3] [mg/L] | IC80, pseudovirus neutralization [3] [mg/L] | IC50, pseudovirus neutralization [4] [mg/L] | IC80, pseudovirus neutralization [4] [mg/L] | IC50, pseudovirus neutralization [5] [mg/L] | IC80, pseudovirus neutralization [5] [mg/L] | IC50, pseudovirus neutralization [6] [nM] | IC80, pseudovirus neutralization [6] [nM] | IC50, pseudovirus neutralization [7] [nM] | IC80, pseudovirus neutralization [7] [nM] |
| --- | --- | --- | --- | --- | --- | --- | --- | --- | --- | --- | --- | --- | --- | --- |
| MX1047 (bispecific antibody) chain 1: DTVMTQSPLSLPVTPGEPASISCRSSQSLLNSNGYNYLDWYVQKPGQSPQLLIYLGSNRASGVPDRFSGSGSGTDFTLKISRVEAEDVGVYYCMQPLQTPLFTFGPGTKVEIKGGSSGEIVLTQSPGTLSLSPGERATLSCRASQSVSSSYLAWYQQKPGQAPRLLIYSASSRATGIPDRFSGSGSGTDFTLTISRLEPEDFAVYFCQQYVGLTGWTFGQGTKVEIKGGGGSGGSGSGGGGSASGSGQMQLVQSGPEVKKPGTSVKVSCKASGFTFTSSAVQWVRQRQRLEWIGWIVVGSGNTNYAQKFQERVTITRDMSTSTAYMELSSLRSEDTAVYYCAAPNCSNVVCYDGFDIWGQGTMVTVSSGGSSGQVTLRESGPALVKPTQTLTLTCTFSGFSLSTRGVCVSWIRQPPGKALEWLAFIDWDDDKYYNTSLKTRLTISKDTSKNQVVLTMTNVHPVDTATYYCARISSHHGSSWCTTFDYWGQGALVTVSAASGGSGDKTHTCPPCPAPELLGGPSVFLFPPKPKDTLMISRTPEVTCVVVDVSHEDPEVKFNWYVDGVEVHNAKTKPREEQYNSYVVSVLTVLHQDWLNGKEYKCKVSNKALPAPIEKTISKAKGQPREPQVYTLPPSRDELTKNQVSLTCLVKGFYPSDIAVEWESNGQPENNYKTTPPVLDSDGSFFKKLTVDKSRWQQGNVFSCSVLHEALHSHYTQKSLSLSPG chain 2: EIVLTQSPGTLSLSPGERATLSCRASQSVSSSYLAWYQQKPGQAPRLLIYSASSRATGIPDRFSGSGSGTDFTLTISRLEPEDFAVYFCQQYVGLTGWTFGQGTKVEIKGGSSGQTVVTQEPSFSVSPGGTVTLTCGLSSGSVSTAYFPSWYQQTPGQAPRTLIYGTNTRSSGVPDRFSGSILGNKAALTITGAQADDESDYYCVLYMGRGIVVFGGGTKLTVLGGGGSGGSGSGGGGSASGSGQVQLVESGGGVVQPGRSLRLSCAASGFTLSSYGMHWVRQAPGKGLEWVAVISYDGSNKYYVDSVKGRFTISRDNSKNTLYLQMNSLRAEDTAVYYCRWAYWELLPDYYYGMDVWGQGTTVTVSSGGSSGQMQLVQSGPEVKKPGTSVKVSCKASGFTFTSSAVQWVRQRQRLEWIGWIVVGSGNTNYAQKFQERVTITRDMSTSTAYMELSSLRSEDTAVYYCAAPNCSNVVCYDGFDIWGQGTMVTVSSASGGSGDKTHTCPPCPAPELLGGPSVFLFPPKPKDTLMISRTPEVTCVVVDVSHEDPEVKFNWYVDGVEVHNAKTKPREEQYNSYVVSVLTVLHQDWLNGKEYKCKVSNKALPAPIEKTISKAKGQPREPQVYTLPPSRDELTKNQVSLTCLVKGFYPSDIAVEWESNGQPENNYKTTPPVLDSDGSFFKKLTVDKSRWQQGNVFSCSVLHEALHSHYTQKSLSLSPG | 0.00346 | 0.00846 | 0.0197 | 0.19 | 0.0967 | 0.7 | 0.00436 | 0.0258 | 0.208 | 3.29 | – | – | – | – |
| MX837 (other) chain 1: QTVVTQEPSFSVSPGGTVTLTCGLSSGSVSTAYFPSWYQQTPGQAPRTLIYGTNTRSSGVPDRFSGSILGNKAALTITGAQADDESDYYCVLYMGRGIVVFGGGTKLTVLGGSSGEIVLTQSPGTLSLSPGERATLSCRASQSVSSSYLAWYQQKPGQAPRLLIYSASSRATGIPDRFSGSGSGTDFTLTISRLEPEDFAVYFCQQYVGLTGWTFGQGTKVEIKGGGGSGGSGSGGGGSASGSGQMQLVQSGPEVKKPGTSVKVSCKASGFTFTSSAVQWVRQRQRLEWIGWIVVGSGNTNYAQKFQERVTITRDMSTSTAYMELSSLRSEDTAVYYCAAPNCSNVVCYDGFDIWGQGTMVTVSSGGSSGQVQLVESGGGVVQPGRSLRLSCAASGFTLSSYGMHWVRQAPGKGLEWVAVISYDGSNKYYVDSVKGRFTISRDNSKNTLYLQMNSLRAEDTAVYYCRWAYWELLPDYYYGMDVWGQGTTVTVSSASGGSGDKTHTCPPCPAPELLGGPSVFLFPPKPKDTLMISRTPEVTCVVVDVSHEDPEVKFNWYVDGVEVHNAKTKPREEQYNSYVVSVLTVLHQDWLNGKEYKCKVSNKALPAPIEKTISKAKGQPREPQVYTLPPCRDELTKNQVSLWCLVKGFYPSDIAVEWESNGQPENNYKTTPPVLDSDGSFFKKLTVDKSRWQQGNVFSCSVLHEALHSHYTQKSLSLSPG chain 2: DIQMTQSPSSVSASVGDRVIITCRASQGISSWLAWYQQKPGKAPKVLIYDASSLQSGVPSRFSGSGYGTDFTLTISSLQPEDSATYYCQQAKSFPITFGQGTRLEIKGGSSGEIVLTQSPGTLSLSPGERATLSCRASQSVSSSYLAWYQQKPGQAPRLLIYSASSRATGIPDRFSGSGSGTDFTLTISRLEPEDFAVYFCQQYVGLTGWTFGQGTKVEIKGGGGSGGSGSGGGGSASGSGQMQLVQSGPEVKKPGTSVKVSCKASGFTFTSSAVQWVRQRQRLEWIGWIVVGSGNTNYAQKFQERVTITRDMSTSTAYMELSSLRSEDTAVYYCAAPNCSNVVCYDGFDIWGQGTMVTVSSGGSSGQVQLVESGGGVVQPGRSLRLSCAASGFTFSSYAFHWVRQAPGKGLEWVAVISYDGSNQYYADSVKGRFTISRDNSKNTLYLQMNSLRADDTAVYYCARDLAIAVAGTWHYYNGMDVWGQGTTVTVSSASGGSGDKTHTCPPCPAPELLGGPSVFLFPPKPKDTLMISRTPEVTCVVVDVSHEDPEVKFNWYVDGVEVHNAKTKPREEQYNSYVVSVLTVLHQDWLNGKEYKCKVSNKALPAPIEKTISKAKGQPREPQVCTLPPSRDELTKNQVSLSCAVKGFYPSDIAVEWESNGQPENNYKTTPPVLDSDGSFFLVSKLTVDKSRWQQGNVFSCSVLHEALHSHYTQKSLSLSPG | – | – | – | – | – | – | – | – | – | – | 2.06 | 7.07 | 5.76 | 17.5 |
| MX1049 (bispecific antibody) EIVLTQSPGTLSLSPGERATLSCRASQSVSSSYLAWYQQKPGQAPRLLIYSASSRATGIPDRFSGSGSGTDFTLTISRLEPEDFAVYFCQQYVGLTGWTFGQGTKVEIKGGSSGDTVMTQSPLSLPVTPGEPASISCRSSQSLLNSNGYNYLDWYVQKPGQSPQLLIYLGSNRASGVPDRFSGSGSGTDFTLKISRVEAEDVGVYYCMQPLQTPLFTFGPGTKVEIKGGGGSGGSGSGGGGSASGSGQVTLRESGPALVKPTQTLTLTCTFSGFSLSTRGVCVSWIRQPPGKALEWLAFIDWDDDKYYNTSLKTRLTISKDTSKNQVVLTMTNVHPVDTATYYCARISSHHGSSWCTTFDYWGQGALVTVSAGGSSGQMQLVQSGPEVKKPGTSVKVSCKASGFTFTSSAVQWVRQRQRLEWIGWIVVGSGNTNYAQKFQERVTITRDMSTSTAYMELSSLRSEDTAVYYCAAPNCSNVVCYDGFDIWGQGTMVTVSSASGGSGDKTHTCPPCPAPELLGGPSVFLFPPKPKDTLMISRTPEVTCVVVDVSHEDPEVKFNWYVDGVEVHNAKTKPREEQYNSYVVSVLTVLHQDWLNGKEYKCKVSNKALPAPIEKTISKAKGQPREPQVYTLPPSRDELTKNQVSLTCLVKGFYPSDIAVEWESNGQPENNYKTTPPVLDSDGSFFKKLTVDKSRWQQGNVFSCSVLHEALHSHYTQKSLSLSPG | 0.00347 | 0.0106 | 0.0226 | 0.103 | 0.0645 | 2.18 | 0.00636 | 0.0171 | 0.156 | 4.53 | – | – | – | – |
| A23-58L93VGLTG (antibody, V domains shown) VH: QMQLVQSGPEVKKPGTSVKVSCKASGFTFTSSAVQWVRQRQRLEWIGWIVVGSGNTNYAQKFQERVTITRDMSTSTAYMELSSLRSEDTAVYYCAAPNCSNVVCYDGFDIWGQGTMVTVSS VL: EIVLTQSPGTLSLSPGERATLSCRASQSVSSSYLAWYQQKPGQAPRLLIYSASSRATGIPDRFSGSGSGTDFTLTISRLEPEDFAVYFCQQYVGLTGWTFGQGTKVEIK | 0.0052 | 0.0135 | 0.0235 | 0.0877 | 0.0303 | 1.32 | > 10 | > 10 | > 10 | > 10 | – | – | – | – |
